Data: article PMC7473772 (eLife, 2020)
Several values for one entry are separate records, joined by “and”; a condition that tells them apart may be missing. Identical values can stand only once. Like-named read-outs stand apart in the source and are kept apart here.

How the values were obtained:
Experiment in all cases: Drug sensitivity assay (resazurin)
Format in all cases: cell-based, Trypanosoma brucei brucei
[1] = tested on: tbaqp2/tbaqp3 null cells expressing TbAQP2 L84M
[2] = tested on: tbaqp2/tbaqp3 null cells expressing TbAQP2^L264R
[3] = tested on: tbaqp2/tbaqp3 null cells expressing TbAQP2^L258Y
[4] = tested on: tbaqp2/tbaqp3 null cells expressing TbAQP2^W192G; conditions: Fig. 3C
[5] = tested on: tbaqp2/tbaqp3 null cells expressing TbAQP2^I110W
[6] = tested on: tbaqp2/tbaqp3 null cells expressing TbAQP2^I110W/L264R; conditions: Fig. 2F
[7] = tested on: tbaqp2/tbaqp3 null cells expressing TbAQP2WT; conditions: for EC50 as percent of AQP2/3 null EC50, MEAN: +AQP2 cells
[8] = tested on: tbaqp2/tbaqp3 null cells expressing TbAQP2 L218M
[9] = tested on: tbaqp2/tbaqp3 null cells expressing TbAQP2 L118W
[10] = tested on: tbaqp2/tbaqp3 null cells expressing TbAQP2^S131P/S263A
[11] = tested on: tbaqp2/tbaqp3 null cells expressing TbAQP2^I190T/W192G; conditions: Fig. 3D, row printed I190T/W192T
[12] = tested on: tbaqp2/tbaqp3 null cells expressing TbAQP2^I190T; conditions: Fig. 3B
[13] = tested on: tbaqp2/tbaqp3 null cells expressing TbAQP2 L84W
[14] = tested on: tbaqp2/tbaqp3 null cells expressing TbAQP3^W102I/R256L; conditions: Fig. 2H; AQP3 W102I/R256L cells
[15] = tested on: tbaqp2/tbaqp3 null cells expressing TbAQP3^W102I/R256L/Y250L; conditions: Fig. 2H; AQP3 W102I/Y250L/R256L cells
[16] = tested on: tbaqp2/tbaqp3 null cells expressing TbAQP3; conditions: Fig. 2H; AQP3-WT cells
[17] = tested on: tbaqp2/tbaqp3 null cells expressing TbAQP2 L118M
tbaqp2/tbaqp3 null cells = conditions: for EC50 as percent of AQP2/3 null EC50, MEAN / EC50 as percent of AQP2/3 null EC50, single repeats: dKO AQP2/3 cells
[18] = tested on: tbaqp2/tbaqp3 null cells expressing TbAQP2 L218W
[19] = read-out: EC50, MEAN, L-->M mutations series
[20] = Fig. 2H, AQP3 W102I/Y250L/R256L set
[21] = Fig. 3D, TbAQP2(I190T/W192G) set
[22] = L-->W mutations series, 3 repeats
[23] = read-out: EC50, MEAN, L-->W mutations series, 3 repeats
[24] = read-out: EC50, single repeats, L-->W mutations series

O=[As]c1ccccc1 (centres unmarked)
EC50, MEAN (% KO) ([1]; L-->M mutations series): 108.08 % KO
EC50 [1, 19]: 3.83 nM
EC50, percent of AQP2/3 null EC50 [2]: 98.45%
EC50, percent of AQP2/3 null EC50 [3]: 90.94%
EC50 as percent of AQP2/3 null EC50, MEAN [4]: 98.44%
EC50, percent of AQP2/3 null EC50 [5]: 103.34%
EC50 as percent of AQP2/3 null EC50, MEAN [6]: 105.67%
EC50 (% of aqp2/aqp3 null), MEAN ([7]; +AQP2-WT, L-->W mutations series, 3 repeats): 79.71 % of aqp2/aqp3 null
EC50, MEAN (% KO) ([7]; +AQP2, L-->M mutations series): 87.81 % KO
EC50, percent of AQP2/3 null EC50 ([7]; +AQP2 WT (sensitive control)): 92.91% and 101.19% and 88.19%
EC50 as percent of AQP2/3 null EC50, MEAN ([7]; Fig. 2F, I110W/L264R set): 104.03%
EC50 as percent of AQP2/3 null EC50, MEAN ([7]; Fig. 2H, AQP3-WT set): 96.15%
EC50 as percent of AQP2/3 null EC50, MEAN ([7]; Fig. 2H, AQP3 W102I/R256L set): 104.03%
EC50 as percent of AQP2/3 null EC50, MEAN [7, 20]: 104.03%
EC50 as percent of AQP2/3 null EC50, MEAN ([7]; Fig. 3B, TbAQP2(I190T) set): 101.687%
EC50 as percent of AQP2/3 null EC50, MEAN ([7]; Fig. 3C, TbAQP2(W192G) set): 101.687%
EC50 as percent of AQP2/3 null EC50, MEAN [7, 21]: 93.019%
EC50 ([7]; read-out: EC50, MEAN, +AQP2-WT, L-->W mutations series, 3 repeats): 1.41 nM
EC50 ([7]; read-out: EC50, MEAN, +AQP2, L-->M mutations series): 3.73 nM
EC50 ([7]; read-out: EC50, single repeats, +AQP2-WT, L-->W mutations series): 1.94 nM and 0.993 nM and 1.31 nM
EC50, MEAN (% KO) ([8]; L-->M mutations series): 71.30 % KO
EC50 [8, 19]: 3.53 nM
EC50 (% of aqp2/aqp3 null), MEAN [9, 22]: 93.74 % of aqp2/aqp3 null
EC50 [9, 23]: 1.66 nM
EC50 [9, 24]: 1.9 nM and 1.95 nM and 1.14 nM
EC50, percent of AQP2/3 null EC50 [10]: 94.80%
EC50 as percent of AQP2/3 null EC50, MEAN [11]: 84.41%
EC50 as percent of AQP2/3 null EC50, MEAN [12]: 100.59%
EC50 (% of aqp2/aqp3 null), MEAN [13, 22]: 89.58 % of aqp2/aqp3 null
EC50 [13, 23]: 1.59 nM
EC50 [13, 24]: 2.04 nM and 1.14 nM and 1.59 nM
EC50 as percent of AQP2/3 null EC50, MEAN [14]: 97.54%
EC50 as percent of AQP2/3 null EC50, MEAN [15]: 101.37%
EC50 as percent of AQP2/3 null EC50, MEAN [16]: 91.77%
EC50, MEAN (% KO) ([17]; L-->M mutations series): 87.08 % KO
EC50 [17, 19]: 4.45 nM
EC50, MEAN (% KO) (tbaqp2/tbaqp3 null cells; AQKO, L-->M mutations series): 100.00 % KO
EC50 (% of aqp2/aqp3 null), MEAN (tbaqp2/tbaqp3 null cells; AQKO, L-->W mutations series, 3 repeats): 100.00 % of aqp2/aqp3 null
EC50 as percent of AQP2/3 null EC50, MEAN (tbaqp2/tbaqp3 null cells; Fig. 2F, I110W/L264R set): 100.00%
EC50 as percent of AQP2/3 null EC50, single repeats (tbaqp2/tbaqp3 null cells; Fig. 2F, I110W/L264R set): 100%
EC50 as percent of AQP2/3 null EC50, MEAN (tbaqp2/tbaqp3 null cells; Fig. 2H, AQP3-WT set): 100.00%
EC50 as percent of AQP2/3 null EC50, single repeats (tbaqp2/tbaqp3 null cells; Fig. 2H, AQP3-WT set): 100.0%
EC50 as percent of AQP2/3 null EC50, MEAN (tbaqp2/tbaqp3 null cells; Fig. 2H, AQP3 W102I/R256L set): 100.00%
EC50 as percent of AQP2/3 null EC50, single repeats (tbaqp2/tbaqp3 null cells; Fig. 2H, AQP3 W102I/R256L set): 100.0%
EC50 as percent of AQP2/3 null EC50, MEAN (tbaqp2/tbaqp3 null cells; [20]): 100.00%
EC50 as percent of AQP2/3 null EC50, single repeats (tbaqp2/tbaqp3 null cells; [20]): 100%
EC50 as percent of AQP2/3 null EC50, MEAN (tbaqp2/tbaqp3 null cells; Fig. 3B, TbAQP2(I190T) set): 100.000%
EC50 as percent of AQP2/3 null EC50, single repeats (tbaqp2/tbaqp3 null cells; Fig. 3B, TbAQP2(I190T) set): 100.0%
EC50 as percent of AQP2/3 null EC50, MEAN (tbaqp2/tbaqp3 null cells; Fig. 3C, TbAQP2(W192G) set): 100.00%
EC50 as percent of AQP2/3 null EC50, single repeats (tbaqp2/tbaqp3 null cells; Fig. 3C, TbAQP2(W192G) set): 100.0%
EC50 as percent of AQP2/3 null EC50, MEAN (tbaqp2/tbaqp3 null cells; [21]): 100.00%
EC50 as percent of AQP2/3 null EC50, single repeats (tbaqp2/tbaqp3 null cells; [21]): 100.0%
EC50, percent of AQP2/3 null EC50 (tbaqp2/tbaqp3 null cells; dKO AQP2/3 (resistant control, set to 100)): 100.00%
EC50 (tbaqp2/tbaqp3 null cells; read-out: EC50, MEAN, AQKO, L-->M mutations series): 3.76 nM
EC50 (tbaqp2/tbaqp3 null cells; read-out: EC50, MEAN, AQKO, L-->W mutations series, 3 repeats): 1.77 nM
EC50 (tbaqp2/tbaqp3 null cells; read-out: EC50, single repeats, AQKO, L-->W mutations series): 2.01 nM and 2.02 nM and 1.29 nM
EC50 (% of aqp2/aqp3 null), MEAN [18, 22]: 93.25 % of aqp2/aqp3 null
EC50 [18, 23]: 1.65 nM
EC50 [18, 24]: 1.98 nM and 1.93 nM and 1.05 nM
